A mixed list of measured activities; the numbers were collected in NIAID ChemDB.

All rows: tests in culture; species: HIV-1; read-out: EC50

Neighbouring rows are from separate reports. ECn: concentration that inhibits the pathogen or its effect by n%. Blank or dashed fields: not listed here. a–b is a range or a potency band.

structure,mutations,strain or isolate,conditions,cell line,result
C[C@H](Cn1cnc2c(N)ncnc21)OCP(=O)(O)O,E138Q,LAI,-,TZM-bl,5.5 µM
Cc1cc(C)c2ccc(C)c(-n3c(C)nnc3SCC(=O)Nc3ccc(S(N)(=O)=O)cc3Cl)c2n1,Y188L,-,-,HeLa,0.011 µM
Cc1ccnc2c1NC(=O)c1cccnc1N2C1CC1,RT-A98G,VAU (RT-A98G),-,PBMC,0.1 µM
CC(C)CN(C[C@@H](O)[C@H](Cc1ccccc1)NC(=O)[C@H](CC(N)=O)NC(=O)c1ccc2ccccc2n1)C(=O)NC(C)(C)C,PR-G48V I54V A71T V82A,RF,-,MT-2,1.79 µM
O=C1O[C@H]2[C@@H]3OC(=O)c4cc(O)c(O)c(O)c4-c4c(cc(O)c(O)c4O)C(=O)OC[C@H]2O[C@@H](OC(=O)c2cc(O)c(O)c(O)c2)[C@@H]3OC(=O)c2cc(O)c(O)c3c2[C@@H]2C1=CC(=O)[C@](O)(O3)C2(O)O,RT-G190A,NNRTI-resistant (RT G190A) ARP1014,-,MAGI,1.1 µg/mL
Cc1cn([C@H]2C[C@H](N=[N+]=[N-])[C@@H](CO)O2)c(=O)[nH]c1=O,-,IIIB Recombinant,-,MT-4,0.005 µM
Nc1nc(NC2CC2)c2ncn([C@H]3C=C[C@@H](CO)C3)c2n1,-,NL4-3,-,Jurkat cells,0.053 µM
CC(C)(C)NC(=O)[C@@H]1C[C@@H]2CCCC[C@@H]2CN1C[C@@H](O)[C@H](Cc1ccccc1)NC(=O)[C@H](CC(N)=O)NC(=O)c1ccc2ccccc2n1,L10I I15V K20R L24I M36I M46L I54V I62V L63P K70Q V82A L89M,Clinical isolate,multidrug-resistant,PBMC,0.31 µM
Cc1ccnc2c1NC(=O)c1cccnc1N2C1CC1,AMD3100-resistant,NL4-3,-,-,0.06 µM
Cc1ccc(NC(=O)CSc2nnc(C)n2-c2ccc(C)c3ccccc23)c(Cl)c1,Y188L,-,-,HeLa,0.1 µM
CC(C)c1nc(CN(C)C(=O)N[C@H](C(=O)N[C@@H](Cc2ccccc2)C[C@H](O)[C@H](Cc2ccccc2)NC(=O)OCc2cncs2)C(C)C)cs1,-,NL4-3,-,MT-4,0.08 µM
COc1cnc2c(-n3c(C)nnc3SCC(=O)Nc3ccc(S(N)(=O)=O)cc3Cl)cccc2c1,-,-,-,HeLa,0.0008 µM
CC(C)=CCN1c2cc(Cl)cc3[nH]c(=S)n(c23)C[C@@H]1C,RT-K70R Y181C,-,-,MT-4,<12.5 µM
COc1ccc(S(=O)(=O)N(CC(C)C)C[C@@H](O)[C@H](Cc2ccccc2)NC(=O)O[C@H]2CO[C@H]3OCC(F)(F)[C@H]32)cc1,L10F V32I M46I I45M A71V I84V APV resistant,NL4-3,-,MT-4,0.43 µM
Cc1cn([C@H]2C[C@H](N=[N+]=[N-])[C@@H](CO)O2)c(=O)[nH]c1=O,RT-A98G Y181C,BCF03,-,PBMC,<0.01 µM
Nc1nc(N)c2ncn([C@H]3CO[C@@H](CO)O3)c2n1,-,IIIB,-,CBMC,0.9 µM
Cc1nnc(C(=O)NC(C)(C)c2nc(C(=O)NCc3ccc(F)cc3)c(O)c(=O)n2C)o1,-,NL4-3,-,Jurkat cells,0.003 µM
CC(C)(C)NC(=O)[C@@H]1C[C@@H]2CCCC[C@@H]2CN1C[C@@H](O)[C@H](Cc1ccccc1)NC(=O)[C@H](CC(N)=O)NC(=O)c1ccc2ccccc2n1,PR-L10I K20C M36I L63T I64V A71V,BCF06,-,PBMC,0.0138 µM
Nc1nc(=O)n([C@@H]2CS[C@H](CO)O2)cc1F,-,LAI,-,TZM-bl,1.2 µM
CC(=O)Oc1ccc(/C=C/C(=O)O[C@H](C(=O)O)[C@H](OC(=O)/C=C/c2ccc(OC(C)=O)c(OC(C)=O)c2)C(=O)O)cc1OC(C)=O,gp120 S158N N293D T370N T376N E377Q,NL4-3,-,MT-4,7.8 µM
CC(C)CN(C[C@@H](O)[C@H](Cc1ccccc1)NC(=O)O[C@H]1CCOC1)S(=O)(=O)c1ccc(N)cc1,L10I K14R L33I M36I M46I F53I K55R I62V L63P A71V G73S V82A L90M I93L,Clinical isolate,"clinical isolate, multidrug-resistant",PBMC,0.49 µM
C[C@H](Cn1cnc2c(N)ncnc21)OCP(=O)(O)O,+Vpx,NL4-3,-,Jurkat cells,10.9 µM
c1cc(CN2CCCNCCNCCCNCC2)ccc1CN1CCCNCCNCCCNCC1,-,WOPRO1838 Recombinant,-,-,0.02 µM
CO[P@](=O)(c1cc(C)cc(/C=C/C#N)c1)c1c(C(N)=O)[nH]c2ccc(Cl)cc12,Y181C,Clinical isolate,-,MT-2,0.0015 µM
O=C(Nc1cc(S(=O)(=O)O)cc2cc(S(=O)(=O)O)c(N=Nc3ccc(N=Nc4c(S(=O)(=O)O)cc5cc(S(=O)(=O)O)cc(NC(=O)c6cccc(Cl)c6Cl)c5c4O)cc3)c(O)c12)c1ccc(Cl)cc1Cl,-,RF,-,CEM,0.04–0.27 µg/mL
Cc1ccc(NC(=O)CSc2nnc(C)n2-c2c(C)ccc3ccccc23)c(Cl)c1,Y188L,-,-,HeLa,0.2 µM
O=c1[nH]cnc2c1ncn2[C@H]1CC[C@@H](CO)O1,-,NL4-3,-,Primary T lymphocytes,0.402 µM

For reference, 3 entries again:

structure | mutations | strain or isolate | conditions | cell line | result
Nc1nc(N)c2ncn([C@H]3CO[C@@H](CO)O3)c2n1 | - | IIIB | - | CBMC | 0.9 µM
CC(C)CN(C[C@@H](O)[C@H](Cc1ccccc1)NC(=O)[C@H](CC(N)=O)NC(=O)c1ccc2ccccc2n1)C(=O)NC(C)(C)C | PR-G48V I54V A71T V82A | RF | - | MT-2 | 1.79 µM
COc1cnc2c(-n3c(C)nnc3SCC(=O)Nc3ccc(S(N)(=O)=O)cc3Cl)cccc2c1 | - | - | - | HeLa | 0.0008 µM